Results of unrelated studies side by side (data: NIAID ChemDB).

Shared fields: tests in culture; agent: HIV-1; cell line: CEM; measure: EC50

Blank or dashed fields: not listed here. Neighbouring rows are from separate reports. ECn: concentration that inhibits the pathogen or its effect by n%.

SMILES,strain or isolate,changes,method,value
O=C(c1cccc(Br)c1)c1ccc2[nH]c(=O)sc2c1,IIIB,,syncytia,3.5 µg/mL
O=C(NCCO)c1ccccc1SSc1ccccc1C(=O)NCCO,,,cytopathic effect / XTT,4.5 µM
Cc1cn([C@@H]2O[C@@H]3CN[C@@]4(OCCOc5ccccc5)CS(=O)(=O)O[C@@]34[C@H]2O)c(=O)[nH]c1=O,IIIB,,,>250 µM
Cc1ccc(C)c(C(Cl)S(=O)(=O)c2cc(C)cc[n+]2[O-])c1,IIIB,RT-K103N,syncytia,>4 µg/mL
CC(=O)COc1cc(NC(=S)OC(C)C)ccc1Cl,IIIB,,syncytia,1.658 µM
CCOCn1c(Sc2ccccc2)c(CC)c(=O)[nH]c1=O,IIIB,,syncytia,0.006 µM
CNS(=O)(=O)c1ccc(NC(=O)c2ccccc2SSc2ccccc2C(=O)Nc2ccc(S(=O)(=O)NC)cc2)cc1,,,cytopathic effect / XTT,1.7 µM
Cc1ccc(C)c(CSc2c(O)ccc[n+]2[O-])c1,IIIB,,syncytia,>20 µg/mL
Cc1cn([C@@H]2O[C@@H]3CN[C@@]4(O)CS(=O)(=O)O[C@@]34[C@H]2O[Si](C)(C)C(C)(C)C)c(=O)[nH]c1=O,IIIB,,,>250 µM
Cc1ccc(C(C)S(=O)c2cccc[n+]2[O-])c(Cl)c1,IIIB,,syncytia,>0.16 µg/mL
CC(C)OC(=S)Nc1ccc(Cl)c(C(=O)OC2CCCC2)c1,,RT-V106A,syncytia,1.609 µM
CCOCn1c(Cc2ccccc2)c(CC)c(=O)[nH]c1=O,IIIB,Nevirapine resistant (RT Y181C),syncytia,0.52 µM
O=S(=O)(Cc1ccccc1)c1c(Cl)ccc[n+]1[O-],IIIB,,syncytia,>0.8 µg/mL
CC(C)OC(=S)Nc1ccc(Cl)c(C(=O)O)c1,,RT-Y181C,syncytia,>36.53 µM
COc1ccc(S(=O)(=O)N(CC(C)C)C[C@@H](O)CCN(CC2CCCC2)S(=O)(=O)Cc2cc(C)on2)cc1,IIIB,,p24,<1 µM
CCc1c(Sc2ccccc2)n(COCc2ccccc2)c(=O)[nH]c1=O,IIIB,RT-E138K,syncytia,0.06 µM
Cc1ccc(C)c(C(c2ccccc2)S(=O)(=O)c2cccc[n+]2[O-])c1,IIIB,,syncytia,>20 µg/mL
CCO[C@]12CS(=O)(=O)O[C@@]13[C@@H](CN2)O[C@@H](Sc1ccccc1)[C@@H]3O[Si](C)(C)C(C)(C)C,IIIB,,,>10 µM
Cc1occc1C(=O)Nc1ccc(Cl)c(/C=N/N(C)C)c1,Nevirapine-resistant (RT V106A),RT-V106A,syncytia,<2 µg/mL
CC[C@@H](C)OC(=S)Nc1ccc(Cl)c(C(=O)OC(C)C)c1,,RT-L100I,syncytia,0.91 µM
CCC1=C(Cc2ccccc2)C(c2cccc(O)c2)NC(=O)N1,,,p24 / ELISA,>5 µM
CCCCOC(=O)c1cc(NC(=S)OC(C)C)ccc1Cl,,RT-Y181C,syncytia,1.9 µM
Cc1ccc(CS(=O)c2cccc[n+]2[O-])cc1,IIIB,,syncytia,>4 µg/mL
CCC(=O)C1=C(COC2CCCCC2)NC(=O)NC1c1ccc(O)c(Cl)c1,,,p24 / ELISA,>5 µM
COCCOC(=S)Nc1ccc(Cl)c(C(=O)OC(C)C)c1,,RT-Y181C,syncytia,≥30.14 µM
Cc1ccc(C)c(CSc2ncccc2O)c1,IIIB,,syncytia,0.22 µg/mL
CCC(=O)C1=C(CCC2CCCC2)NC(=O)NC1c1ccc(O)c(Cl)c1,,,p24 / ELISA,>5 µM
C/C=C/COc1cc(NC(=S)OC(C)C)ccc1Cl,,RT-E138K,syncytia,0.3335 µM
CCOCn1c(Sc2cc(C)cc(C)c2)c(CC)c(=O)[nH]c1=S,IIIB,,syncytia,0.003 µM
CSC(=Nc1ccc(Cl)c(C(=O)OC(C)C)c1)OC(C)C,IIIB,,syncytia,>30.13 µM
COc1ccc(S(=O)(=O)N(CC(C)C)C[C@@H](O)CCN(CC2CCCC2)S(=O)(=O)c2nc3ccccc3[nH]2)cc1,IIIB,,p24,<1 µM
CC(C)OC(=O)c1cc(NC(=S)OCC2(C)COC2)ccc1Cl,,RT-Y181C,syncytia,>29.94 µM
O=c1[nH]c2ccc(Cc3ccccc3F)cc2o1,IIIB,,syncytia,>8 µg/mL
CC(C)O/N=C/c1cc(NC(=S)OC(C)C)ccc1Cl,,RT-E138K,syncytia,0.2122 µM
CC(C)c1c(Sc2ccccc2)n(COCCO)c(=S)[nH]c1=O,IIIB,RT-Y188H,syncytia,>10 µM
Cc1cn([C@@H]2O[C@@H]3CN[C@@]4(OCCO)CS(=O)(=O)O[C@@]34[C@H]2O)c(=O)[nH]c1=O,IIIB,,,>250 µM
[N-]=[N+]=NCCCCCCCCCCC(=O)O,,,cytopathic effect,>10 µg/mL
CC(c1ccc(S(C)(=O)=O)cc1)S(=O)c1cccc[n+]1[O-],IIIB,,syncytia,>0.8 µg/mL
O=[N+]([O-])c1ccc[n+]([O-])c1SCc1ccccc1,MN,,syncytia,13 µg/mL
Cc1cn([C@@H]2O[C@@H]3CN[C@@]4(OCCOc5ccccc5)CS(=O)(=O)O[C@@]34[C@H]2O[Si](C)(C)C(C)(C)C)c(=O)[nH]c1=O,IIIB,,,>5 µM
CC(C)(C)OC(=O)c1cc(NC(=S)OC(C)(C)C)ccc1Cl,,RT-Y181C,syncytia,>29.08 µM
Cc1ccc(C)c(C(C)S(=O)(=O)c2c(C)ccc[n+]2[O-])c1,HE,,syncytia,0.4 µg/mL
C=CCOc1cc(NC(=S)OC(C)C)ccc1C#N,,RT-E138K,syncytia,2.171 µM
COc1ccc(S(=O)(=O)N(CC2CCCC2)C[C@@H](O)CN(CCC2CCCCC2)C(=O)O[C@H]2CCOC2)cc1,IIIB,,p24,<0.1 µM
O=C(c1ccc(F)cc1)c1ccc2[nH]c(=O)oc2c1,IIIB,,syncytia,>40 µg/mL
CCCOC(=O)c1cc(NC(=S)OC(C)C)ccc1Cl,,RT-L100I,syncytia,9.816 µM
CCC1=C(C(=O)OCC2CCCCC2)[C@H](c2ccc(OC(=O)c3ccccc3)cc2)NC(=O)N1,,,p24 / ELISA,≤1 µM
CC(C)OC(=O)c1cc(NC(=S)OC(C)(C)C)ccc1Cl,,RT-V106A,syncytia,2.577 µM
CCNc1cccc(C2NC(=O)NC(CC)=C2C(=O)OCC2CCCCC2)c1,,,p24 / ELISA,≤1 µM
N#C/C(=C/c1ccc(Cl)cc1Cl)S(=O)(=O)c1cccc[n+]1[O-],IIIB,,syncytia,>4 µg/mL
C/C=C\COc1cc(NC(=S)OC(C)C)ccc1OC,,RT-Y181C,syncytia,12.53 µM
COc1ccc(C)cc1CS(=O)(=O)c1cccc[n+]1[O-],HE,,syncytia,38 µg/mL
COc1ccc(S(=O)(=O)N(CC(C)C)C[C@@H](O)CC(=O)N2CCN(C(=O)OCc3ccccc3)C[C@H]2C(=O)NC(C)(C)C)cc1,IIIB,,p24,<1 µM
CC(C)OC(=O)c1cc(NC(=S)OC(C)C)ccc1Cl,IIIB,,syncytia,0.028 µM
CCc1c(Sc2cc(C)cc(C)c2)n(COCCO)c(=O)[nH]c1=O,IIIB,Nevirapine resistant (RT Y181C),syncytia,0.25 µM
NS(=O)(=O)c1ccc(CNC(=O)c2ccccc2SSc2ccccc2C(=O)NCc2ccc(S(N)(=O)=O)cc2)cc1,,,cytopathic effect / XTT,1.4 µM
CC(c1ccc(F)cc1)S(=O)c1cccc[n+]1[O-],IIIB,,syncytia,>0.16 µg/mL
O=C(O)CCCCCCCCCCCn1ccnn1,,,cytopathic effect,>1 µg/mL
O=C(c1cccc(Br)c1)c1ccc2[nH]c(=O)oc2c1,IIIB,,syncytia,>8 µg/mL
Cc1ccc(C)c(C(CCCCCCBr)S(=O)(=O)c2cccc[n+]2[O-])c1,IIIB,,syncytia,>0.8 µg/mL
CCOC(=O)CCCCCCCCCC(=O)O,,,cytopathic effect,>1 µg/mL
N#C/C(=C/c1ccccc1)Sc1cccc[n+]1[O-],IIIB,,syncytia,>4 µg/mL
Cc1ccc(C)c(C(C)S(=O)(=O)c2ccc(C)c[n+]2[O-])c1,HE,,syncytia,40 µg/mL
CCS[C@]12CS(=O)(=O)O[C@@]13[C@@H](CN2)O[C@@H](n1cc(C)c(=O)[nH]c1=O)[C@@H]3O,IIIB,,,30 µM
O=C(c1ccccc1SSc1ccccc1C(=O)N1CCCCC1)N1CCCCC1,,,cytopathic effect / XTT,21 µM
O=C(c1cccc(I)c1)c1ccc2[nH]c(=O)sc2c1,IIIB,,syncytia,4.6 µg/mL
C=CCOC(=O)c1cc(NC(=S)OC(C)C)ccc1Cl,,RT-L100I,syncytia,2.231 µM
COc1ccc(CS(=O)c2cccc[n+]2[O-])cc1OC,IIIB,,syncytia,>0.8 µg/mL
Cc1cccc(CS(=O)(=O)c2cccc[n+]2[O-])c1,IIIB,RT-L100I,syncytia,≥20 µg/mL
Cc1cc[n+]([O-])c(S(=O)(=O)Cc2ccc(Cl)cc2)c1,IIIB,,syncytia,>14 µg/mL
Nc1cccc(S(=O)(=O)N(CC2CCCC2)C[C@@H](O)CN(CCc2ccccc2)C(=O)c2cccnc2)c1,IIIB,,p24,<1 µM
CCO[C@]12CS(=O)(=O)O[C@@]13C(CN2)O[C@@H](n1cc(C)c(=O)n(C)c1=O)[C@@H]3O[Si](C)(C)C(C)(C)C,IIIB,,,3 µM
COc1ccc(S(=O)(=O)N(CC(C)C)C[C@@H](O)CCN(CC2CCCC2)S(=O)(=O)Cc2cccc3nc(C)oc23)cc1,IIIB,,p24,<1 µM
Cc1cccc(C(=O)c2ccc3c(c2)sc(=O)n3C)c1,IIIB,,syncytia,<1.6 µg/mL
Cc1cc(C)cc(Cc2c(C(C)C)c(=O)[nH]c(=O)n2COCCO)c1,IIIB,RT-Y181C,syncytia,3.4 µM
Cn1ccnc1CCCCCCCCCCCC(=O)O,,,cytopathic effect,>10 µg/mL
CC(C)OC(=S)Nc1ccc(Cl)c(C(=O)OC2CC2)c1,,RT-E138K,syncytia,2.071 µM
CCC1=C(C(=O)OCC2CCCCC2)C(c2ccc(OC(=O)C(C)(C)C)c(Cl)c2)NC(=O)N1,,,p24 / ELISA,≤1 µM
Cc1ccc(C)c(CSc2c(Cl)ccc[n+]2[O-])c1,IIIB,RT-K103N,syncytia,4.8 µg/mL
CC(C)CNC(=O)c1ccccc1SSc1ccccc1C(=O)NCC(C)C,,,cytopathic effect / XTT,1.8 µM
CCC1=C(c2ncc(C3CCCCC3)o2)C(c2cccc(O)c2)NC(=O)N1,,,p24 / ELISA,>5 µM
CCOC(=O)C(C)Oc1cc(NC(=S)OC(C)C)ccc1Cl,,RT-L100I,syncytia,18.79 µM
[N-]=[N+]=NCCCCCCCCCCCC(=O)O,RF,,cytopathic effect,<4 µM

Repeating the final 12 entries:

SMILES	strain or isolate	changes	method	value
CCO[C@]12CS(=O)(=O)O[C@@]13C(CN2)O[C@@H](n1cc(C)c(=O)n(C)c1=O)[C@@H]3O[Si](C)(C)C(C)(C)C	IIIB			3 µM
COc1ccc(S(=O)(=O)N(CC(C)C)C[C@@H](O)CCN(CC2CCCC2)S(=O)(=O)Cc2cccc3nc(C)oc23)cc1	IIIB		p24	<1 µM
Cc1cccc(C(=O)c2ccc3c(c2)sc(=O)n3C)c1	IIIB		syncytia	<1.6 µg/mL
Cc1cc(C)cc(Cc2c(C(C)C)c(=O)[nH]c(=O)n2COCCO)c1	IIIB	RT-Y181C	syncytia	3.4 µM
Cn1ccnc1CCCCCCCCCCCC(=O)O			cytopathic effect	>10 µg/mL
CC(C)OC(=S)Nc1ccc(Cl)c(C(=O)OC2CC2)c1		RT-E138K	syncytia	2.071 µM
CCC1=C(C(=O)OCC2CCCCC2)C(c2ccc(OC(=O)C(C)(C)C)c(Cl)c2)NC(=O)N1			p24 / ELISA	≤1 µM
Cc1ccc(C)c(CSc2c(Cl)ccc[n+]2[O-])c1	IIIB	RT-K103N	syncytia	4.8 µg/mL
CC(C)CNC(=O)c1ccccc1SSc1ccccc1C(=O)NCC(C)C			cytopathic effect / XTT	1.8 µM
CCC1=C(c2ncc(C3CCCCC3)o2)C(c2cccc(O)c2)NC(=O)N1			p24 / ELISA	>5 µM
CCOC(=O)C(C)Oc1cc(NC(=S)OC(C)C)ccc1Cl		RT-L100I	syncytia	18.79 µM
[N-]=[N+]=NCCCCCCCCCCCC(=O)O	RF		cytopathic effect	<4 µM